This is an account of results in PubChem BioAssay AID1085 (Emory University Molecular Libraries Screening Center, 2008).

The chains behind the UniProt entries cited, without tags or fusion partners.
UniProt Q1HVG2, whole entry: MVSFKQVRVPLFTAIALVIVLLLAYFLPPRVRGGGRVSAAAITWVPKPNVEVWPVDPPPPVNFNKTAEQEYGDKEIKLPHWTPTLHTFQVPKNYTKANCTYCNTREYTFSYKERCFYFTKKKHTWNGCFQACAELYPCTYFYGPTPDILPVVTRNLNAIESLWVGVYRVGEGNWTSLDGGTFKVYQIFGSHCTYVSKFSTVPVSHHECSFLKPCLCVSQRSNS

By inhibition is commonly meant the drop in the measured response relative to a control, in per cent.

The entries are a selection whose mix differs from that of the whole data set. Active and inactive are the calls of the source. Rule as the data show it: active = inhibition above about 50%; inactive = the rest.

For the experiment, the target named is Glycoprotein 42 (Epstein-Barr virus (strain AG876)) (UniProt Q1HVG2). Put plainly: Epstein-Barr virus gp42 inhibitors, primary screen, biochemical, uHTS, fluorescence polarization (AID 1085). The following applies: Fluorescence polarization binding assay, mP read-out; stronger effect = higher value; tested at 21.74 µM.
`COC(=O)c1cc2c(s1)N=C(c1ccccc1)N(C)P2(=O)N1CCOCC1` (stereo unspecified): the inhibition was inactive: -16.1%.
